# Share of PSTVd loop 15 variants by leaf site

The measurements come from Wu et al. 2024 (doi:10.1371/journal.ppat.1012142).

The pool varies loop 15 of the PSTVd intermediate strain in the pattern GGAAACCGNNNNNNC; wild type is GGAAACCGCUACUAC (upper and lower strand joined, each 5' to 3', the first 7 letters being the upper strand, closing pairs included).

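A pool of all variants was put on leaves of three Nicotiana benthamiana plants. Samples came from the inoculated region at 5 days, the leaf margin at 10 and upper systemic leaves at 12.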

Numbers give reads per thousand; 0 = not seen among the reads, higher = more abundant.
Each site shows the three plants.
"Pool" is the share in the plasmid pool used as inoculum, on the same scale.
The inoculated region was read from the minus strand, the other sites from the plus strand.
Sequences that differ at fixed positions probably stem from PCR or sequencing errors, and defective variants can be carried along by functional ones.
For reference, wild type rose from 33.9 per thousand in the pool to 202, 200, 159 (inoculated region), 724, 746, 710 (leaf margin) and 856, 883, 880 (systemic leaves).
With 43,870-66,106 reads a sample, very low values are single reads.

sequence | pool | inoculated region | leaf margin | systemic leaves
GGAAACCGUCAUGUC | 0.256 | 0.0655 0.0803 0.0571 | 0.0162 0 0.0200 | 0 0 0
GGAAACCGUCAUUAC | 0.288 | 0.262 0.193 0.362 | 0.146 0.111 0.180 | 0.0805 0.0908 0
GGAAACCGUCAUUCC | 0.224 | 0.360 0.386 0.324 | 0.146 0.0223 0.0601 | 0.0966 0.0908 0.0456
GGAAACCGUCAUUGC | 0.192 | 0.278 0.321 0.495 | 0.0647 0.111 0.160 | 0.0322 0.106 0.0684
GGAAACCGUCAUUUC | 0.160 | 0.393 0.337 0.381 | 0.113 0.0445 0.140 | 0.0161 0.0303 0.0684
GGAAACCGUCCAAAC | 0.240 | 0.0983 0.0803 0.0762 | 0 0 0.0401 | 0 0 0
GGAAACCGUCCAACC | 0.224 | 0.164 0.0964 0.152 | 0 0.0445 0 | 0 0 0
GGAAACCGUCCAAGC | 0.272 | 0.115 0.112 0.248 | 0 0.0223 0.0200 | 0 0 0
GGAAACCGUCCAAUC | 0.176 | 0.246 0.273 0.190 | 0.0162 0 0.0401 | 0.0322 0.0151 0
GGAAACCGUCCACAC | 0.160 | 0.164 0.0803 0.190 | 0 0 0.0200 | 0 0 0
GGAAACCGUCCACCC | 0.192 | 0.131 0.0321 0.0381 | 0 0 0 | 0 0 0
GGAAACCGUCCACGC | 0.256 | 0.0819 0.0482 0.114 | 0.0162 0 0.0401 | 0.0322 0 0
GGAAACCGUCCACUC | 0.128 | 0.0819 0.0643 0.0952 | 0 0 0.0200 | 0 0 0
GGAAACCGUCCAGAC | 0.208 | 0.0491 0.129 0.133 | 0.0162 0.0223 0 | 0 0 0
GGAAACCGUCCAGCC | 0.288 | 0.164 0.0482 0.0952 | 0 0.0223 0 | 0 0 0
GGAAACCGUCCAGGC | 0.272 | 0.147 0.112 0.0571 | 0 0.0223 0 | 0 0 0
GGAAACCGUCCAGUC | 0.240 | 0.131 0.129 0.0381 | 0 0 0.0401 | 0 0 0
GGAAACCGUCCAUAC | 0.208 | 0.360 0.337 0.343 | 0.0647 0.0223 0.0401 | 0.0483 0.0303 0.0684
GGAAACCGUCCAUCC | 0.208 | 0.0983 0.112 0.190 | 0.0162 0.0223 0.0200 | 0.0161 0 0
GGAAACCGUCCAUGC | 0.224 | 0.229 0.161 0.152 | 0.0647 0.0223 0.0601 | 0 0 0
GGAAACCGUCCAUUC | 0.192 | 0.409 0.273 0.647 | 0.129 0.134 0.0801 | 0.0966 0 0
GGAAACCGUCCCAAC | 0.144 | 0.0655 0.0964 0.0952 | 0 0 0 | 0 0 0
GGAAACCGUCCCACC | 0.256 | 0.0983 0.129 0.133 | 0.0162 0 0 | 0 0 0
GGAAACCGUCCCAGC | 0.0640 | 0.0655 0.112 0.133 | 0.0162 0 0.0200 | 0 0 0
GGAAACCGUCCCAUC | 0.272 | 0.131 0.0482 0.0952 | 0.0162 0 0.0401 | 0 0 0
GGAAACCGUCCCCAC | 0.336 | 0.0819 0.0643 0.114 | 0 0 0.0200 | 0.0161 0 0
GGAAACCGUCCCCCC | 0.224 | 0.164 0.225 0.0571 | 0 0 0.0200 | 0.0161 0 0
GGAAACCGUCCCCGC | 0.224 | 0.0491 0.112 0.133 | 0.0162 0.0223 0.0200 | 0 0 0
GGAAACCGUCCCCUC | 0.160 | 0.246 0.0964 0.0952 | 0.0323 0 0 | 0 0 0
GGAAACCGUCCCGAC | 0.304 | 0.180 0.0964 0.133 | 0.0162 0 0.0401 | 0 0 0
GGAAACCGUCCCGCC | 0.176 | 0.0983 0.0482 0.114 | 0 0 0 | 0 0 0
GGAAACCGUCCCGGC | 0.208 | 0.0819 0.0643 0.190 | 0 0.0223 0 | 0 0 0
GGAAACCGUCCCGUC | 0.240 | 0.0819 0.145 0.0762 | 0.0162 0 0.0200 | 0 0 0
GGAAACCGUCCCUAC | 0.224 | 0.360 0.337 0.400 | 0.113 0.0445 0.100 | 0.0322 0.0756 0.0456
GGAAACCGUCCCUCC | 0.208 | 0.0655 0.0321 0.171 | 0 0 0.0200 | 0 0 0
GGAAACCGUCCCUGC | 0.224 | 0.164 0.0803 0.0571 | 0.0323 0 0.0200 | 0.0161 0 0
GGAAACCGUCCCUUC | 0.320 | 0.360 0.273 0.476 | 0.178 0.0445 0.200 | 0.0161 0 0
GGAAACCGUCCGAAC | 0.112 | 0.426 0.225 0.419 | 0.0808 0.200 0.0601 | 0.0483 0 0
GGAAACCGUCCGACC | 0.176 | 0.0491 0.112 0.0571 | 0 0 0 | 0.0161 0 0
GGAAACCGUCCGAGC | 0.272 | 0.0819 0.161 0.133 | 0 0 0 | 0.0161 0 0.0228
GGAAACCGUCCGAUC | 0.0800 | 0.278 0.337 0.286 | 0.0647 0 0.120 | 0.0161 0 0
GGAAACCGUCCGCAC | 0.320 | 0.0819 0.257 0.171 | 0.0323 0 0 | 0.0161 0 0
GGAAACCGUCCGCCC | 0.320 | 0.0655 0.0482 0.0762 | 0 0.0445 0 | 0.0161 0 0
GGAAACCGUCCGCGC | 0.272 | 0.0491 0.112 0.0381 | 0.0323 0 0.0200 | 0 0 0
GGAAACCGUCCGCUC | 0.288 | 0.311 0.353 0.286 | 0 0 0.0601 | 0 0 0
GGAAACCGUCCGGAC | 0.176 | 0.344 0.337 0.305 | 0.0808 0.111 0.140 | 0.0483 0 0